Data source: PubChem BioAssay AID1259414 (Drosophila RNAi Screening Center, 2018)

Assay: 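Host factors increasing or decreasing Wolbachia levels in cultured fly cells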 (primary screen)
Cell system: Drosophila JW18 cells infected with Wolbachia
Reagent: long dsRNA against Drosophila genes, 0.25 µg dsRNA per well of a 384-well plate
Duration: 5 days
Challenge: cells persistently infected with Wolbachia before knock-down; no added drug
Measurement: 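Automated imaging of bacterial rRNA staining divided by host cell count, reported as plate-normalised robust z-score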
Scale: Wolbachia per cell robust z: higher = more Wolbachia per host cell than the plate typical
Rule for the call: 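Active if absolute robust z reaches 1.5 in two or more of three replicates, leaving out multi- or no-target dsRNAs, genes unexpressed in JW18 and A1 wells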
In all, the deposit lists about 24,000 reagents; shown is an unselected part of those with a known target gene and a result. In the full data, about 1,210 (5%) were called active. 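Inactive calls also include excluded dsRNAs with several or no targets, genes unexpressed in JW18, and well A1, regardless of score.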 Unmarked entries are inactive.

Target gene	amplicon	Wolbachia per cell robust z, rep 1	Wolbachia per cell robust z, rep 2	Wolbachia per cell robust z, rep 3
FoxK (GeneID 39252)	DRSC24971	0.533	0.0421	1.47
CG2616 (GeneID 40915)	DRSC15440	-2.1	-0.222	1.38
CG2616 (GeneID 40915)	DRSC24316	2.07	0.303	0.982
CG14644 (GeneID 40536)	DRSC12230	0.175	0.441	-1.4
Nup188 (GeneID 36397)	DRSC21830	-0.0884	-0.133	-0.34
Nup188 (GeneID 36397)	DRSC29937	-7.79	-0.427	-0.497
shn (GeneID 36171)	DRSC05266	-0.441	0.837	-1
shn (GeneID 36171)	DRSC07681	-0.958	0.794	0.3
shn (GeneID 36171)	DRSC40696	-0.238	-2.28	-0.362
CG1504 (GeneID 33028)	DRSC20513	-0.017	0.44	-0.297
CG1504 (GeneID 33028)	DRSC26901	0.77	0.877	-2.26
beat-Va (GeneID 41578)	DRSC14192	1.2	-0.727	-0.203
Elba2 (GeneID 33442)	DRSC00731	0.202	0.655	0.535
Elba2 (GeneID 33442)	DRSC28543	-0.723	0.592	-1.25
CG18530 (GeneID 59241)	DRSC15341	0.556	-0.0526	0.16
CG17109 (GeneID 42730)	DRSC15172	-0.701	-0.138	1.01
CG17109 (GeneID 42730)	DRSC26637	-2.82	-0.824	-0.0864
ND-PDSW (GeneID 44228)	DRSC00715	0.291	-0.109	-10.1
CG13896 (GeneID 38089)	DRSC08366	0.079	-3	0.702
CASK (GeneID 42567)	DRSC14588	1.04	0.474	-0.281
CASK (GeneID 42567)	DRSC16597	-0.44	-0.0773	0.184
CASK (GeneID 42567)	DRSC16598	-0.212	0.269	-6.43
CASK (GeneID 42567)	DRSC21917	-1.87	-0.281	0.103
CASK (GeneID 42567)	DRSC29057	-0.852	-0.773	-0.673
Prx4 (GeneID 53577)	DRSC08668	0.22	0.419	0.367
Prx4 (GeneID 53577)	DRSC24543	-2.08 (active)	-1.21	-2.25
bae (retired record) (GeneID 45067)	DRSC20173	0.303	0.413	0.371
bae (retired record) (GeneID 45067)	DRSC20174	1.22	0.449	-1.86
CG8067 (GeneID 36552)	DRSC07065	-2.83 (active)	-1.64	-5.11
CG31211 (GeneID 41443)	DRSC14953	0.957	0.0818	0.264
CG31211 (GeneID 41443)	DRSC15344	0.597	1.44	-2.57
CG31211 (GeneID 41443)	DRSC21478	-1.64	0.211	0.632
ena (GeneID 37201)	DRSC05779	0.952	1.03	1.52
ena (GeneID 37201)	DRSC07610	0.389	0.96	0.355
ena (GeneID 37201)	DRSC25393	-1.61	2.05	0.639
l(2)k09022 (GeneID 33960)	DRSC02108	-1.08	0.772	0.0978
CG9497 (GeneID 33884)	DRSC03234	0.187	-0.0255	0.182
CG9497 (GeneID 33884)	DRSC25510	0.331	0.0686	-1.78
Serinc (GeneID 39827)	DRSC11296	-2.25	0.0674	-1.04
CG14000 (GeneID 33820)	DRSC02332	1.36	-0.675	0.545
scu (GeneID 32789)	DRSC20369	0.388	0.791	0.0607
scu (GeneID 32789)	DRSC27026	0.894	-4.37	0.298
CG15127 (GeneID 50203)	DRSC05802	-0.777	0.257	-0.0152
CG15127 (GeneID 50203)	DRSC06549	0.591	-3.71	-1.63
CG13623 (GeneID 42926)	DRSC14625	-0.372 (active)	-2.56	-2.94
MAGE (GeneID 40860)	DRSC12504	0.387	0.0415	-0.00808

In a second layout: results already given.
Target gene,amplicon,"Wolbachia per cell robust z, rep 1","Wolbachia per cell robust z, rep 2","Wolbachia per cell robust z, rep 3"
Nup188 (GeneID 36397),DRSC21830,-0.0884,-0.133,-0.34
Nup188 (GeneID 36397),DRSC29937,-7.79,-0.427,-0.497
shn (GeneID 36171),DRSC05266,-0.441,0.837,-1
shn (GeneID 36171),DRSC07681,-0.958,0.794,0.3
shn (GeneID 36171),DRSC40696,-0.238,-2.28,-0.362
CG1504 (GeneID 33028),DRSC20513,-0.017,0.44,-0.297
